Measurements reported in patent US20220089698A1, “ANTIBODIES THAT TARGET HIV GP120 AND METHODS OF USE” (published 2022).

What was measured:
Test in all cases: cell-based or functional assay
[1] = target: HIV-1 envelope glycoprotein gp120 of virus 92US727 (HIV-1)
[2] = target: HIV-1 envelope glycoprotein gp120 of virus 8320 (HIV-1)
[3] = target: HIV-1 envelope glycoprotein gp120 of virus 92US712 (HIV-1)
[4] = target: HIV-1 envelope glycoprotein gp120 of virus 8106 (HIV-1)
[5] = target: HIV-1 envelope glycoprotein gp120 of virus CH106 (HIV-1)
[6] = target: HIV-1 envelope glycoprotein gp120 of virus 7467 (HIV-1)
[7] = target: HIV-1 envelope glycoprotein gp120 of virus 8089 (HIV-1)
[8] = target: HIV-1 envelope glycoprotein gp120 of virus 1489 (HIV-1)
[9] = target: HIV-1 envelope glycoprotein gp120 of virus 8134 (HIV-1)
[10] = target: HIV-1 envelope glycoprotein gp120 of virus 7007 (HIV-1)
[11] = target: HIV-1 envelope glycoprotein gp120 of virus 7103 (HIV-1)
[12] = target: HIV-1 envelope glycoprotein gp120 of virus 1413 (HIV-1)
[13] = target: HIV-1 envelope glycoprotein gp120 of virus 7015 (HIV-1)
[14] = target: HIV-1 envelope glycoprotein gp120 of virus 7051 (HIV-1)
[15] = target: HIV-1 envelope glycoprotein gp120 of virus BaL (HIV-1)
[16] = target: HIV-1 envelope glycoprotein gp120 of virus 8359 (HIV-1)
[17] = target: HIV-1 envelope glycoprotein of virus WITO (HIV-1)
[18] = target: HIV-1 envelope glycoprotein gp120 of virus RHPA (HIV-1)
[19] = target: HIV-1 envelope glycoprotein gp120 of virus 8339 (HIV-1)
[20] = target: HIV-1 envelope glycoprotein gp120 of virus THRO (HIV-1)
[21] = target: HIV-1 envelope glycoprotein gp120 of virus 7576 (HIV-1)
[22] = target: HIV-1 envelope glycoprotein gp120 of virus 7714 (HIV-1)
[23] = target: HIV-1 envelope glycoprotein gp120 of virus 1012 (HIV-1)
[24] = target: HIV-1 envelope glycoprotein gp120 of virus 92US657 (HIV-1)
[25] = target: HIV-1 envelope glycoprotein gp120 of virus 7352 (HIV-1)
[26] = target: HIV-1 envelope glycoprotein gp120 of virus 7596 (HIV-1)
[27] = target: HIV-1 envelope glycoprotein gp120 of virus CH058 (HIV-1)
[28] = target: HIV-1 envelope glycoprotein gp120 of virus 7141 (HIV-1)
[29] = target: HIV-1 envelope glycoprotein gp120 of virus 8398 (HIV-1)
[30] = target: HIV-1 envelope glycoprotein gp120 of virus 7552 (HIV-1)
[31] = target: HIV-1 envelope glycoprotein gp120 of virus 8318 (HIV-1)
[32] = target: HIV-1 envelope glycoprotein gp120 of virus CH040 (HIV-1)
[33] = target: HIV-1 envelope glycoprotein gp120 of virus REJO (HIV-1)
[34] = target: HIV-1 envelope glycoprotein gp120 of virus 92HT593 (HIV-1)
[35] = target: HIV-1 envelope glycoprotein gp120 of virus CH077 (HIV-1)
[36] = target: HIV-1 envelope glycoprotein gp120 of virus 1003 (HIV-1)
[37] = target: HIV-1 envelope glycoprotein gp120 of virus 8176 (HIV-1)
[38] = target: HIV-1 envelope glycoprotein gp120 of virus 8110 (HIV-1)
[39] = target: HIV-1 envelope glycoprotein gp120 of virus 7595 (HIV-1)
[40] = target: HIV-1 envelope glycoprotein gp120 of virus 8117 (HIV-1)

Binder | HIV Neutralization Potency [1] [µg/mL] | HIV Neutralization Potency [2] [µg/mL] | HIV Neutralization Potency [3] [µg/mL] | HIV Neutralization Potency [4] [µg/mL] | HIV Neutralization Potency [5] [µg/mL] | HIV Neutralization Potency [6] [µg/mL] | HIV Neutralization Potency [7] [µg/mL] | HIV Neutralization Potency [8] [µg/mL] | HIV Neutralization Potency [9] [µg/mL] | HIV Neutralization Potency [10] [µg/mL] | HIV Neutralization Potency [11] [µg/mL] | HIV Neutralization Potency [12] [µg/mL] | HIV Neutralization Potency [13] [µg/mL] | HIV Neutralization Potency [14] [µg/mL] | HIV Neutralization Potency [15] [µg/mL] | HIV Neutralization Potency [16] [µg/mL] | HIV Neutralization Potency [17] [µg/mL] | HIV Neutralization Potency [18] [µg/mL] | HIV Neutralization Potency [19] [µg/mL] | HIV Neutralization Potency [20] [µg/mL] | other results
Antibody 1.1.90-1 (antibody, human IgG1, kappa, V domains shown) VH: QVQLLQSGAAVTKPGASVRVSCEASGYNIRDYFIHWWRQAPGQGLQWVGWINPKTGQPNNPRQFQGRVSLTRHASWDFDTFSFYMDLKALRSDDTAVYFCARQRSDYWDFDVWGSGTQVTVSS VL: DIQMTQSPSSLSASVGDRATITCQANGYLNWYQQRRGKAPKLLIYDGSKLERGVPSRFSGSRWGQEYNLTISSLQPEDIATYFCQVYEFFGPGTRLDLKR | 3.8 | 0.39 | 0.07 | 0.89 | 1.69 | 0.06 | 0.47 | 0.24 | 1.05 | > 50 | 1.13 | 3.55 | 1.03 | 0.19 | 0.13 | 0.58 | 0.07 | 0.16 | > 50 | 7.42 | HIV Neutralization Potency [21]: 0.36 µg/mL; HIV Neutralization Potency [22]: 3.76 µg/mL; HIV Neutralization Potency [23]: 1.4 µg/mL; HIV Neutralization Potency [24]: 1.17 µg/mL; HIV Neutralization Potency [25]: > 50 µg/mL; HIV Neutralization Potency [26]: 11.5 µg/mL; HIV Neutralization Potency [27]: 0.05 µg/mL; HIV Neutralization Potency [28]: 2.41 µg/mL; HIV Neutralization Potency [29]: > 50 µg/mL; HIV Neutralization Potency [30]: > 50 µg/mL; HIV Neutralization Potency [31]: 0.21 µg/mL; HIV Neutralization Potency [32]: 9.57 µg/mL; HIV Neutralization Potency [33]: 0.07 µg/mL; HIV Neutralization Potency [34]: 0.68 µg/mL; HIV Neutralization Potency [35]: 0.1 µg/mL; HIV Neutralization Potency [36]: 1.92 µg/mL; HIV Neutralization Potency [37]: 0.24 µg/mL; HIV Neutralization Potency [38]: 1.65 µg/mL; HIV Neutralization Potency [39]: 3.71 µg/mL; HIV Neutralization Potency [40]: 1.14 µg/mL
Antibody 1.1.64-1 (antibody, human IgG1, kappa) heavy: QVQLLQSGAAVTKPGASVRVSCEASGYNIRDYFIHWWRQAPGQGLQWVGWINPKTGQPNNPRQFQGRVSLTRHASWDFDTFSFYMDLKALRSDDTAVYFCARQRSDYWDFDVWGSGTQVTVSSASTKGPSVFPLAPSSKSTSGGTAALGCLVKDYFPEPVTVSWNSGALTSGVHTFPAVLQSSGLYSLSSVVTVPSSSLGTQTYICNVNHKPSNTKVDKKVEPKSCDKTHTCPPCPAPELLAGPDVFLFPPKPKDTLMISRTPEVTCVVVDVSHEDPEVKFNWYVDGVEVHNAKTKPREEQYNSTYRVVSVLTVLHQDWLNGKEYKCKVSNKALPLPEEKTISKAKGQPREPQVYTLPPSREEMTKNQVSLTCLVKGFYPSDIAVEWESNGQPENNYKTTPPVLDSDGSFFLYSKLTVDKSRWQQGNVFSCSVLHEALHSHYTQKSLSLSPGK light: not shown | 0.79 | 0.37 | 0.06 | 1.08 | 0.99 | 0.03 | 0.32 | 0.13 | 0.29 | > 50 | 1.01 | 2.35 | 0.6 | 0.23 | 0.08 | 0.48 | 0.13 | 0.09 | > 50 | 9.6 | HIV Neutralization Potency [21]: 0.41 µg/mL; HIV Neutralization Potency [22]: 7.48 µg/mL; HIV Neutralization Potency [23]: 1.4 µg/mL; HIV Neutralization Potency [24]: 0.79 µg/mL; HIV Neutralization Potency [25]: 40.1 µg/mL; HIV Neutralization Potency [26]: 16.2 µg/mL; HIV Neutralization Potency [27]: 0.03 µg/mL; HIV Neutralization Potency [28]: 1.99 µg/mL; HIV Neutralization Potency [29]: > 50 µg/mL; HIV Neutralization Potency [30]: 16.1 µg/mL; HIV Neutralization Potency [31]: 0.23 µg/mL; HIV Neutralization Potency [32]: 18.6 µg/mL; HIV Neutralization Potency [33]: 0.04 µg/mL; HIV Neutralization Potency [34]: 0.35 µg/mL; HIV Neutralization Potency [35]: 0.03 µg/mL; HIV Neutralization Potency [36]: 1.25 µg/mL; HIV Neutralization Potency [37]: 0.24 µg/mL; HIV Neutralization Potency [38]: 2.62 µg/mL; HIV Neutralization Potency [39]: 4.48 µg/mL; HIV Neutralization Potency [40]: 1.13 µg/mL
